# Assay: Staining on white and black cotton textiles
# Conditions: 7.5% by weight in water, 2 mL, 24 hours, before washing
smiles,measurement,value
CCCCCC[n+]1ccccc1.[Cl-] [1-hexylpyridinium chloride],residue on black cotton textile,no residue at all
same,residue on white cotton textile,"slight, light yellow residue"

# — patent publication US20230218496A1, “IONIC LIQUID AS AN ANTIPERSPIRANT” (Novigo GmbH, priority 2020, published 2023)
